A mixed list of measured activities; the numbers were collected in NIAID ChemDB.

Shared fields: enzyme or target tests

Two numbers with a dash give a range or band. An empty or dashed field is not shown. Neighbouring rows are from separate reports. ICn: concentration for n% inhibition. Inhibition is in % at the dose shown (toxicity tests: loss of growth or viability).

compound,target,measure,agent,dose,result
Cc1ccccc1S(=O)(=O)Nc1cc(-c2cccc(F)c2)sc1C(=O)O,NS3 ATPase,IC50,Hepatitis C virus,,<5 µM
CCOC(=O)c1cnc2c(c1)nc(-c1ccc3nc(-c4cc(O)ccc4-c4ccc(Cl)cc4)ccc3c1)n2C1CCCCC1,NS5B polymerase,inhibition,Hepatitis C virus,33 µM,56.6%
O=C(O)c1sc(-c2ccccc2)cc1N(Cc1ccccc1)C(=O)C1CCC1,NS3 ATPase,IC50,Hepatitis C virus,,<5 µM
CNC(=O)c1c(-c2ccc(F)cc2)oc2cc(NS(C)(=O)=O)c(OC(C)C)cc12,Nonstructural protein 5B,IC50,Hepatitis C virus,,≤0.5 µM
O=C(O)c1cnc2c(c1)nc(-c1ccc3nc(-c4cc(O)ccc4-c4ccc(Cl)cc4)ccc3c1)n2C1CCCCC1,NS5B polymerase,inhibition,Hepatitis C virus,100 µM,100%
CCN(CC)C(=O)COc1cc2c(C(=O)NC)c(-c3ccc(F)cc3)oc2cc1N(C)S(C)(=O)=O,Nonstructural protein 5B,IC50,Hepatitis C virus,,≤0.5 µM
O=C(O)c1sc(-c2ccc([N+](=O)[O-])cc2)cc1NS(=O)(=O)c1ccccn1,NS3 ATPase,IC50,Hepatitis C virus,,5–20 µM
Cc1ccccc1COc1cccc(-c2nc(C(=O)O)c(O)c(=O)[nH]2)c1,HCV polymerase,IC50,Hepatitis C virus,,<100 µM
COc1ccc(-c2cnc3c(C(=O)O)cnn3c2-c2ccc(OC)cc2)cc1,RNA-dependent RNA polymerase,IC50,Hepatitis C virus,,>10 µM
COc1cccc(-c2nc3ccc(-c4nc5cc(C(=O)O)ccc5n4C4CCCCC4)cc3nc2-c2cccc(OC)c2)c1,NS5B polymerase,inhibition,Hepatitis C virus,100 µM,98.18%
O=C(Nc1ccsc1-c1nc(C(=O)O)c(O)c(=O)[nH]1)NC(Cc1ccccc1)c1ccccc1,HCV polymerase,IC50,Hepatitis C virus,,<25 µM
CS(=O)(=O)c1ccc(-c2ccc(-c3cnc4c(-c5nn[nH]n5)cnn4c3C3CCCCC3)cc2)cc1,RNA-dependent RNA polymerase,IC50,Hepatitis C virus,,1–10 µM
CC(C)N(C(=O)c1cc(F)c(Cl)cc1F)c1cc(-c2ccccc2)sc1C(=O)O,NS3 ATPase,IC50,Hepatitis C virus,,5–20 µM
COc1nc(Nc2ccc3cn[nH]c3c2)nc(N2CCCC2)n1,Nonstructural protein 5B,inhibition,Hepatitis C virus,1 µg/mL,33%
COc1ccc(-c2nc3cc(C(=O)O)nn3cc2C2CCCCC2)cc1,RNA-dependent RNA polymerase,IC50,Hepatitis C virus,,>10 µM
COc1nc(Nc2ccc3cn[nH]c3c2)nc(N2CCN(C)CC2)n1,DNA polymerase,IC50,Hepatitis B virus,,0.1–1 µg/mL
CC(C)(C)c1ccc(CN(C(=O)CC2CCCC2)c2cc(-c3ccccc3)sc2C(=O)O)cc1,NS3 ATPase,IC50,Hepatitis C virus,,<5 µM
O=C(O)c1cc2nc(-c3ccc(Cl)cc3)cc(NCc3ccccc3)n2n1,RNA-dependent RNA polymerase,IC50,Hepatitis C virus,,>10 µM
COc1nc(Nc2ccc3[nH]ncc3c2)nc(N2CCN(C(=O)c3cccnc3)CC2)n1,DNA polymerase,inhibition,Hepatitis B virus,0.01 µg/mL,11%
FC(F)(F)c1ccc(Cl)c(COc2ccc(-c3cnc4c(-c5nn[nH]n5)cnn4c3C3CCCCC3)cc2)c1,RNA-dependent RNA polymerase,IC50,Hepatitis C virus,,1–10 µM
O=C(Nc1ccsc1-c1nc(C(=O)O)c(O)c(=O)[nH]1)c1ccccc1Cl,HCV polymerase,IC50,Hepatitis C virus,,<25 µM
CCOC(=O)c1ccc2c(c1)nc(-c1ccc3nc(-c4cc(OC)ccc4-c4ccc(F)cc4)ccc3c1)n2C1CCCCC1,NS5B polymerase,inhibition,Hepatitis C virus,100 µM,82.03%
O=S(=O)(Nc1cnn2c(C3CCCCC3)c(-c3ccc(OCc4ccccc4)cc3)cnc12)c1cccs1,RNA-dependent RNA polymerase,IC50,Hepatitis C virus,,>10 µM
O=C(O)c1nc(-c2cccc(Cc3ccccc3)c2)[nH]c(=O)c1O,HCV polymerase,IC50,Hepatitis C virus,,<100 µM
O=C(O)c1ccc2c(c1)nc(-c1ccc3nc(-c4ccccc4Br)c(-c4ccccc4)cc3c1)n2C1CCCCC1,NS5B polymerase,inhibition,Hepatitis C virus,100 µM,99.09%
CCOC(=O)C1=CN(N2CCN(c3nc(Nc4ccc5cn[nH]c5c4)nc(OC)n3)CC2)C(SC)N=C1,DNA polymerase,inhibition,Hepatitis B virus,1 µg/mL,53%
Cc1ccc(S(=O)(=O)Nc2cc(-c3cc4ccccc4o3)sc2C(=O)O)c(C)c1,NS3 ATPase,IC50,Hepatitis C virus,,<5 µM
CNC(=O)c1c(-c2ccc(F)cc2)oc2cc(N(C)C3CC3)c(OC(C)C)cc12,Nonstructural protein 5B,IC50,Hepatitis C virus,,≤0.5 µM
COc1ccc(-c2ccccc2F)c(-c2ccc3cc(-c4nc5cc(C(=O)O)ccc5n4C4CCCCC4)ccc3n2)c1,NS5B polymerase,inhibition,Hepatitis C virus,33 µM,102%
O=C(O)c1nc(-c2sccc2NC(=O)C(NCc2cccc3cccnc23)c2ccccc2)[nH]c(=O)c1O,HCV polymerase,IC50,Hepatitis C virus,,<25 µM
CNC(=O)c1c(-c2ccc(F)cc2)oc2cc(-c3cccnc3)c(OC(C)C)cc12,Nonstructural protein 5B,IC50,Hepatitis C virus,,≤0.5 µM
COc1nc(Nc2ccc3[nH]ncc3c2)nc(N2CCCC2)n1,Nonstructural protein 5B,inhibition,Hepatitis C virus,0.1 µg/mL,20%
COc1ccc(-c2ccc(F)c(F)c2)c(-c2ccc3cc(-c4nc5cc(C(=O)O)ccc5n4C4CCCCC4)ccc3n2)c1,NS5B polymerase,inhibition,Hepatitis C virus,33 µM,101%
O=C(O)c1cc2nc(-c3ccc(Cl)cc3)cc(N3CCN(c4ccccn4)CC3)n2n1,RNA-dependent RNA polymerase,IC50,Hepatitis C virus,,>10 µM
Cc1ccc(C(=O)N(C)c2cc(-c3ccccc3)sc2C(=O)O)c(F)c1F,NS3 ATPase,IC50,Hepatitis C virus,,<5 µM
O=C(O)c1nc(-c2c[nH]c3ccccc23)[nH]c(=O)c1O,HCV polymerase,IC50,Hepatitis C virus,,<100 µM
O=C(NS(=O)(=O)c1ccccc1)c1cnn2c(C3CCCCC3)c(-c3ccc(OCc4ccccc4)cc3)cnc12,RNA-dependent RNA polymerase,IC50,Hepatitis C virus,,<1 µM
O=C(Nc1cccc(F)c1)Nc1cscc1-c1nc(C(=O)O)c(O)c(=O)[nH]1,HCV polymerase,IC50,Hepatitis C virus,,<25 µM
COc1ccc(-c2cccs2)c(-c2ccc3cc(-c4nc5cc(C(=O)O)ccc5n4C4CCCCC4)ccc3n2)c1,NS5B polymerase,inhibition,Hepatitis C virus,33 µM,101%

Repeating the final 3 entries:

O=C(NS(=O)(=O)c1ccccc1)c1cnn2c(C3CCCCC3)c(-c3ccc(OCc4ccccc4)cc3)cnc12 ; target: RNA-dependent RNA polymerase ; measure: IC50 ; agent: Hepatitis C virus ; result: <1 µM
O=C(Nc1cccc(F)c1)Nc1cscc1-c1nc(C(=O)O)c(O)c(=O)[nH]1 ; target: HCV polymerase ; measure: IC50 ; agent: Hepatitis C virus ; result: <25 µM
COc1ccc(-c2cccs2)c(-c2ccc3cc(-c4nc5cc(C(=O)O)ccc5n4C4CCCCC4)ccc3n2)c1 ; target: NS5B polymerase ; measure: inhibition ; agent: Hepatitis C virus ; dose: 33 µM ; result: 101%